Paper PMC9916866 (International Journal of Molecular Sciences, 2023)

Chains of the proteins cited; added tags and fusions are not shown.
UniProt P25095, whole entry, looked up: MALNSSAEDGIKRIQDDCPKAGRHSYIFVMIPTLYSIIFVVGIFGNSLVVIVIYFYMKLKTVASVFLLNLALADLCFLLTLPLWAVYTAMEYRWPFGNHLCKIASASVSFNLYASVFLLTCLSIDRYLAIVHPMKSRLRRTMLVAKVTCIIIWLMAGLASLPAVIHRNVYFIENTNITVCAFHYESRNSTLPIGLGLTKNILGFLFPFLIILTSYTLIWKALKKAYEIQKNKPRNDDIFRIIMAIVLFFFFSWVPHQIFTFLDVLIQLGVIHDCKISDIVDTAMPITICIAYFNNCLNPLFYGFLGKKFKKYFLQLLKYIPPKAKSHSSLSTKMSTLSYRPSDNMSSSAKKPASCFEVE

Molecular target: AT1 receptor (Rattus norvegicus, UniProt P25095)
Experiment: IP1 production (HTRF), AT1-mediated Gαq/PLC pathway in CHO-AT1a-EGFP cells
Format: cell-based
Settings: read-out: KB, IP1 production; from Schild regression, n = 3

SMILES: CC(C)[C@@H]1NC(=O)[C@H](Cc2c[nH]c3ccccc23)NC(=O)[C@H](Cc2ccccc2)NC(=O)[C@H](Cc2c[nH]cn2)NC(=O)[C@@H](N)CSSC[C@@H](C(=O)N2CCC[C@H]2C(=O)O)NC1=O [A-CTX-cMila]
- Kb: 17.1 µM
